Compound potency records, mixed from different reports. Data source: NIAID ChemDB in PubChem.

Shared fields: growth or infection tests; species: HIV-1; read-out: EC50

Neighbouring rows are from separate reports. An empty or dashed field is not shown. ECn: concentration that inhibits the pathogen or its effect by n%.

SMILES | read by | changes | strain or isolate | cells | setting | value
CNC(=O)c1c(O)c2ncc(Cc3ccc(F)cc3)c3c2n(c1=O)C[C@](C)(C(=O)N1CCCC1)O3 | ATP / luminescence |  | IIIB | MT-2 |  | 0.022 µM
CCC1=C(C(=O)OCC2CCCCC2)C(c2ccc(OC(=O)C(C)(C)C)c(Cl)c2)NC(=O)N1 | p24 / ELISA |  |  | CEM |  | ≤1 µM
CC(C)C1=C2[C@H]3CC[C@@H]4[C@@]5(C)CC[C@H](OC(=O)[C@H]6C[C@@H](C(=O)O)C6(C)C)C(C)(C)[C@@H]5CC[C@@]4(C)[C@]3(C)CC[C@@]2(CCNC(=O)c2csc(N)n2)CC1=O | p24 / ELISA |  | 92HT599 | MT-2 |  | <1 µM
C[Si](C)(C)C#CC1=C(C(=O)OCC2CCCCC2)C(c2cccc(O)c2)NC(=O)N1 | p24 / ELISA |  |  | CEM |  | >1 µM
CC(C)C1=C2[C@H]3CC[C@@H]4[C@@]5(C)CC[C@H](OC(=O)[C@H]6C[C@@H](C(=O)O)C6(C)C)C(C)(C)[C@@H]5CC[C@@]4(C)[C@]3(C)CC[C@@]2(CCNCC2(N)COC2)CC1=O | p24 / ELISA |  | 92HT599 | MT-2 |  | <1 µM
CC(C)NS(=O)(=O)c1ccc(NC(=O)c2ccccc2SSc2ccccc2C(=O)Nc2ccc(S(=O)(=O)NC(C)C)cc2)cc1 | XTT |  |  | CEM |  | 16 µM
CCO[C@H](C(=O)O)c1c(C)nc2ccc(Cl)cc2c1-c1ccc(OC)cc1 | luciferase / reporter gene |  |  | C8166 |  | <20 µM
CCC1=C(C(=O)OCC2CCCCC2)C(c2cc(N)ccc2Cl)NC(=O)N1 | p24 / ELISA |  |  | CEM |  | >5 µM
CCCC(C(=O)O)c1c(-c2ccc(Cl)cc2)c2cc(Cl)ccc2n(CC)c1=O | luciferase / reporter gene |  |  | C8166 |  | <20 µM
N#C/C=C/c1ccc2cccc(S(=O)(=O)n3nc(Nc4ccc(C#N)c(Cl)c4)nc3N)c2c1 | luciferase / RT activity | Y181C/K103N | IIIB | TZM-bl |  | 0.1934 µM
CNC(=O)c1c(O)c2ncc(Cc3ccc(F)cc3)c3c2n(c1=O)C[C@H](CN1CCN(S(C)(=O)=O)CC1)O3 | ATP / luminescence |  | IIIB | MT-2 |  | 0.0004 µM
CC(C)C1=C2[C@H]3CC[C@@H]4[C@@]5(C)CC[C@H](OC(=O)[C@H]6C[C@@H](C(=O)O)C6(C)C)C(C)(C)[C@@H]5CC[C@@]4(C)[C@]3(C)CC[C@@]2(CC(=O)NCC2(N)CNC2)CC1=O | p24 / ELISA |  | 92HT599 | MT-2 |  | <1 µM
Nc1nc(Nc2ccc(Cl)cc2)nn1S(=O)(=O)c1cnn(-c2ccc(C(F)(F)F)cn2)c1 | luciferase / RT activity | Y181C/K103N | IIIB | TZM-bl |  | >1 µM
N#CCCNC(=O)c1c(O)c2ncc(Cc3ccc(F)cc3)c3c2n(c1=O)CC(CO)(CO)CO3 | ATP / luminescence |  | IIIB | MT-2 |  | 0.011 µM
CCC1=C(C(=O)c2ccc(C(C)(C)C)cc2)C(c2cccc(O)c2)NC(=O)N1 | p24 / ELISA |  |  | CEM |  | >5 µM
CC(C)=CCOC(C(=O)O)c1c(C)nc2ccc(Br)cc2c1-c1ccc(Cl)cc1 | luciferase / reporter gene |  |  | C8166 |  | <20 µM
Cc1ccc(CNC(=O)c2nc3n(c(=O)c2O)C(C)CCCC3N(C)C(=O)C(=O)N(C)C)cc1F | single cycle | N155H |  | HeLa P4-2 |  | 0.001 µM
O=C(NCCO)c1c(O)c2ncc(Cc3ccc(F)cc3)c3c2n(c1=O)CC(CO)(CO)O3 | ATP / luminescence |  | IIIB | MT-2 |  | 0.032 µM
O=C(NCc1ccccc1)c1ccccc1SSc1ccccc1C(=O)NCc1ccccc1 | XTT |  |  | CEM |  | 5 µM
CCN(C)C(=O)[C@@]1(C)Cn2c(=O)c(C(=O)NC)c(O)c3ncc(Cc4ccc(F)cc4)c(c32)O1 | ATP / luminescence |  | IIIB | MT-2 |  | 0.0025 µM
CC(C)C1=C2[C@H]3CC[C@@H]4[C@@]5(C)CC[C@H](OC(=O)CC(C)(C)C(=O)O)C(C)(C)[C@@H]5CC[C@@]4(C)[C@]3(C)CC[C@@]2(NC(=O)Cc2ccc(F)cc2)CC1=O | RT activity |  | IIIB | MT-2 | 30% human serum | <0.199 µM
Cc1cc(CNC(=O)c2nc3n(c(=O)c2O)[C@H](C)COC[C@H]3N(C)C(=O)C(=O)N(C)C)ccc1F | single cycle | Q148R |  | HeLa P4-2 |  | 0.009 µM
O=C(O)c1ccccc1SSc1ccccc1C(=O)O | XTT |  |  | CEM |  | >100 µM
NC(N)=NCCC[C@H](N)C(=O)NC[C@@H]1OC(O[C@H]2[C@@H](O)[C@H](O[C@@H]3[C@@H](O)[C@H](NC(=O)[C@@H](N)CCCN=C(N)N)C[C@H](NC(=O)[C@@H](N)CCCN=C(N)N)[C@H]3O[C@H]3O[C@H](CNC(=O)[C@@H](N)CCCN=C(N)N)[C@@H](O)[C@H](O)[C@H]3NC(=O)[C@@H](N)CCCN=C(N)N)O[C@@H]2CO)[C@H](NC(=O)[C@@H](N)CCCN=C(N)N)[C@@H](O)[C@@H]1O | p24 / RT activity | UC781-resistant | IIIB | MT-2 |  | 1.7 µM
CNC(=O)c1c(O)c2ncc(Cc3ccc(F)cc3)c3c2n(c1=O)CC[C@@H](C(=O)CC(C)(C)CC#N)O3 | ATP / luminescence |  | IIIB | MT-2 |  | 0.018 µM
CC(C)C1=C2[C@H]3CC[C@@H]4[C@@]5(C)CC[C@H](OC(=O)[C@H]6C[C@@H](C(=O)O)C6(C)C)C(C)(C)[C@@H]5CC[C@@]4(C)[C@]3(C)CC[C@@]2([C@@H](O)CN(CCN(C)C)Cc2cc(C(C)C)n[nH]2)CC1=O | p24 / ELISA |  | 92HT599 | MT-2 |  | <1 µM
CCNC(=O)[C@@H]1Cn2c(=O)c(C(=O)NCCOC)c(O)c3ncc(Cc4ccc(F)cc4)c(c32)O1 | ATP / luminescence |  | IIIB | MT-2 |  | 0.008 µM
N#Cc1ccc(S(=O)(=O)n2nc(Nc3ccc(C#N)c(Cl)c3)nc2N)c(Cl)c1 | luciferase / RT activity |  | IIIB | TZM-bl |  | 0.1531 µM
CCN(C(=O)C(=O)N(C)C)[C@@H]1CC[C@H](OC)Cn2c1nc(C(=O)NCc1ccc(F)cc1)c(O)c2=O | single cycle | N155H |  | HeLa P4-2 |  | 0.002 µM
COc1cccc2[nH]cc(C(=O)C(=O)N3CCN(C(=O)c4ccccc4)C[C@H]3C)c12 | virus yield |  | NL4-3 | MT-2/CXCR4 |  | 0.00294 µM
Cc1nccn1CCNC(=O)c1c(O)c2ncc(Cc3ccc(F)cc3)c3c2n(c1=O)CC(F)(F)CN3 | ATP / luminescence |  | IIIB | MT-2 |  | 0.014 µM
Cc1ccnc2c1NC(=O)c1cccnc1N2C1CC1 | p24 / ELISA | Y181C | A17 | TZM-bl |  | >10 µM
CCCC(C(=O)O)c1c(-c2ccc(Cl)cc2)c2cc(Cl)ccc2[nH]c1=O | luciferase / reporter gene |  |  | C8166 |  | <20 µM
CCC(C)C(NC(=O)c1ccccc1SSc1ccccc1C(=O)NC(C(=O)O)C(C)CC)C(=O)O | XTT |  |  | CEM |  | 9 µM
Cc1cc(NC(=O)N[C@@]23CC[C@]4(C)[C@H](CC[C@@H]5[C@@]6(C)CC[C@H](OC(=O)CC(C)(C)C(=O)O)C(C)(C)[C@@H]6CC[C@]54C)C2=C(C(C)C)C(=O)C3)ccn1 | RT activity |  | IIIB | MT-2 | 30% human serum | <0.199 µM
Cc1nc2ccccc2c(-c2ccc(Cl)cc2)c1C(OC(C)(C)C)C(=O)O | luciferase / reporter gene |  |  | C8166 |  | <20 µM
CC[C@@H]1COC[C@H](N(C)C(=O)C(=O)N(C)C)c2nc(C(=O)NCc3ccc(F)cc3)c(O)c(=O)n21 | single cycle | N155H |  | HeLa P4-2 |  | 0.007 µM
CCC(=O)c1ccc(F)c([C@@H]2C[C@@H]2NC(=O)Nc2ccc(C#N)cn2)c1O | β-galactosidase / luminescence | NNRTI-resistant (RT K101E/G190A) | LAI | TZM-bl |  | 0.00145 µM
CC(C)C1=C2[C@H]3CC[C@@H]4[C@@]5(C)CC[C@H](OC(=O)[C@H]6C[C@@H](C(=O)O)C6(C)C)C(C)(C)[C@@H]5CC[C@@]4(C)[C@]3(C)CC[C@@]2(CC(=O)NCC(C)(C)NC(=O)c2ccc3nc[nH]c3c2)CC1=O | p24 / ELISA |  | 92HT599 | MT-2 |  | <1 µM
Cc1cc(CNC(=O)c2nc3n(c(=O)c2O)[C@@H](C)COC[C@@H]3N(C)C(=O)C(=O)N(C)C)ccc1F | single cycle | Y143R |  | HeLa P4-2 |  | 0.002 µM
CCCC(C(=O)O)c1c(C)nc2ccc(Cl)cc2c1-c1ccc(C)c(Cl)c1 | luciferase / reporter gene |  |  | C8166 |  | <20 µM
C[C@H](Cn1cnc2c(N)ncnc21)OCP(=O)(O)O | recombinant virus assay | D67N/T69N/K70R/A98G/M184V/G190S/T215F/K219Q | Clinical isolate | MT-2 |  | 0.0056 µM
Cc1cc(CNC(=O)c2nc3n(c(=O)c2O)CC(C)(C)CCC3N(C)C(=O)C(=O)N(C)C)ccc1F | single cycle | G140S/Q148H |  | HeLa P4-2 |  | 0.009 µM
C#C[C@@]1(CO)C=C[C@H](n2cc(C)c(=O)[nH]c2=O)O1 | recombinant virus assay | A62V (mixture)/L74V/V75I (mixture)/K103N/Y115F/F116Y/Q151M | Clinical isolate | MT-2 |  | 0.969 µM
CCCC(C(=O)O)c1c(-c2ccc(Cl)cc2)c2cc(Cl)ccc2n(CC2CC2)c1=O | luciferase / reporter gene |  |  | C8166 |  | <20 µM
CC[C@@H]1COC[C@@H](N(C)C(=O)C(=O)N(C)C)c2nc(C(=O)NCc3ccc(F)cc3)c(O)c(=O)n21 | single cycle | G140S/Q148H |  | HeLa P4-2 |  | 0.018 µM

6 of the rows above, restated:

SMILES	read by	changes	strain or isolate	cells	setting	value
COc1cccc2[nH]cc(C(=O)C(=O)N3CCN(C(=O)c4ccccc4)C[C@H]3C)c12	virus yield		NL4-3	MT-2/CXCR4		0.00294 µM
Cc1cc(CNC(=O)c2nc3n(c(=O)c2O)CC(C)(C)CCC3N(C)C(=O)C(=O)N(C)C)ccc1F	single cycle	G140S/Q148H		HeLa P4-2		0.009 µM
CCN(C(=O)C(=O)N(C)C)[C@@H]1CC[C@H](OC)Cn2c1nc(C(=O)NCc1ccc(F)cc1)c(O)c2=O	single cycle	N155H		HeLa P4-2		0.002 µM
CCCC(C(=O)O)c1c(C)nc2ccc(Cl)cc2c1-c1ccc(C)c(Cl)c1	luciferase / reporter gene			C8166		<20 µM
CC(C)=CCOC(C(=O)O)c1c(C)nc2ccc(Br)cc2c1-c1ccc(Cl)cc1	luciferase / reporter gene			C8166		<20 µM
O=C(NCc1ccccc1)c1ccccc1SSc1ccccc1C(=O)NCc1ccccc1	XTT			CEM		5 µM